A mixed list of measured activities; the numbers were collected in NIAID ChemDB.

All rows: whole-cell or culture tests; species: HIV-1

Blank or dashed fields: not listed here.

compound	endpoint	cells	strain or isolate	method	conditions	changes	result
O=C(O)CCCNC(=O)c1ccccc1SSc1ccccc1C(=O)NCCCC(=O)O	EC50	CEM	IIIB	cytopathic effect / XTT			3.7 µM
CC[C@]1(CO)O[C@@H](n2cnc3c(N)ncnc32)C[C@@H]1O	EC50	HOS		luciferase		Q151M (delta)Env	>0.52 µM
CC(C)(C)OC(=O)N(CCCCCC(=O)OC[C@H]1O[C@@H](n2ccc(N)nc2=O)CS1)CCCCN(Cc1ccccc1)C(=O)OC(C)(C)C	EC50	MT-4	LAV	syncytia			0.1 µM
C=C1CC[C@@H](OC(=O)CCC(=O)OCC2CC(OP(=O)(O)OCC3CC(OP(=O)(O)OCC4CC(O)C(n5cnc6c(N)ncnc65)O4)C(n4cnc5c(N)ncnc54)O3)C(n3cnc4c(N)ncnc43)O2)C/C1=C/C=C1\CCC[C@]2(C)[C@@H]([C@@H](C)/C=C/[C@H](C)C(C)C)CC[C@@H]12	EC50	SupT1 + Sup-T1	IIIB	syncytia			<300 µM
Cc1cc(C)cc(S(=O)(=O)c2c(C(N)=O)[nH]c3c(Cl)cc(Cl)cc23)c1	EC90	C8166		cytopathic effect / MTT		RT-K103R	>100 µM
C=C(C)C[C@H](NC(=O)c1ccccc1SSc1ccccc1C(=O)N[C@@H](CC(=C)C)C(=O)O)C(=O)O	EC50	CEM	IIIB	cytopathic effect / XTT			12 µM
O=C(OC[C@H]1O[C@@H](OC(=O)c2cc(O)c(O)c(O)c2)[C@H](O)[C@@H](OC(=O)c2cc(O)c(O)c(O)c2)[C@@H]1O)c1cc(O)c(O)c(O)c1	EC50	TZM-bl	HXB2	visual reading / absorbance	pseudotyped		15.2 µM
Cc1cc(C)cc(S(=O)(=O)c2c(C(=O)/C=C/C(N)=O)[nH]c3ccc(Cl)cc23)c1	EC50	MT-4	IIIB	cytopathic effect / MTT			0.06 µM
Cc1cn(CCO[C@H]2C=C[C@@H](CO)O2)c(=O)[nH]c1=O	EC50	MT-4	IIIB	cytopathic effect / MTT			>29 µg/mL
CC(C)C(NC(=O)c1ccccc1SSc1ccccc1C(=O)NC(C(=O)O)C(C)C)C(=O)O	EC50	CEM	IIIB	cytopathic effect / XTT			12 µM
Nc1nc(NC2CC2)c2ncn([C@H]3CO[C@@H](CO)O3)c2n1	EC90	PBMC	LAI	RT activity			9.9 µM
CC(C)C1=C2[C@H]3CC[C@@H]4[C@@]5(C)CC[C@H](OC(=O)[C@H]6C[C@@H](C(=O)O)C6(C)C)C(C)(C)[C@@H]5CC[C@@]4(C)[C@]3(C)CC[C@@]2(CC(=O)NCc2ccc(C(F)(F)F)cc2)CC1=O	EC50	MT-2	92HT599	p24 / ELISA			<1 µM
CCCCCCCCCCCCCCCC(=O)OCC(COC(=O)CCC(=O)OC1CC(COP(=O)(O)OC2CC(COP(=O)(O)OC3CC(CO)OC3n3cnc4c(N)ncnc43)OC2n2cnc3c(N)ncnc32)OC1n1cnc2c(N)ncnc21)OC(=O)CCCCCCCCCCCCCCC	EC50	SupT1 + Sup-T1	IIIB	syncytia			<300 µM
COc1nc(N)nc2c1ncn2[C@H]1CO[C@@H](CO)O1	EC50	PBMC	LAI	RT activity			0.8 µM
Cc1cc(C)cc(S(=O)(=O)c2c(C(=O)NCC(N)=O)[nH]c3ccc(Cl)cc23)c1	EC50	MT-4		p24			<0.06 µM
CC(C)C1=C2[C@H]3CC[C@@H]4[C@@]5(C)CC[C@H](OC(=O)[C@H]6C[C@@H](C(=O)O)C6(C)C)C(C)(C)[C@@H]5CC[C@@]4(C)[C@]3(C)CC[C@@]2([C@@H](O)CNCC(C)(C)NC(=O)c2cncnc2)CC1=O	EC50	MT-2	92HT599	p24 / ELISA			<1 µM
Cc1occc1C(=S)Nc1ccc(Cl)c(/C=N/OC(C)(C)C)c1	EC50	CEM	IIIB	syncytia		RT-V179D	0.48 µM
CC1CCNC2CCCCC2NC(C)CCNC2CCCCC2N1	EC50	MT-4	ROD	MTT			134 µM
CC(C)C1=C2[C@H]3CC[C@@H]4[C@@]5(C)CC[C@H](OC(=O)[C@H]6C[C@@H](C(=O)O)C6(C)C)C(C)(C)[C@@H]5CC[C@@]4(C)[C@]3(C)CC[C@@]2([C@@H](O)CNC(=O)c2ccc(F)cc2)CC1=O	EC50	MT-2	92HT599	p24 / ELISA			<1 µM
CC(C)(C)OC(=O)[C@H](CCC(N)=O)NC(=O)c1ccccc1SSc1ccccc1C(=O)N[C@@H](CCC(N)=O)C(=O)OC(C)(C)C	EC50	CEM	IIIB	cytopathic effect / XTT			3.3 µM
O=C(CCCCCNCCCCNCc1ccccc1)Nc1ccn([C@H]2CS[C@H](COC(=O)CCCCCNCCCCNCc3ccccc3)O2)c(=O)n1	EC50	MT-4	LAV	syncytia			10 µM
CC1(C)C2CC[C@@]3(C)C4CC[C@@]5(C)CC[C@](C)(C(=O)O)C[C@H]5C4=CC(=O)C3[C@@]2(C)CC[C@@H]1O[C@@H]1O[C@H](C(=O)O)[C@@H](O[C@@H]2O[C@H](C(=O)O)[C@@H](O)[C@H](O)[C@H]2O)[C@H](O)[C@H]1O	EC90	MT-4	EVK	p24			950 µg/mL
Cc1cn([C@H]2C[C@H](N=[N+]=[N-])[C@@H](COP(=O)(O)OCCS[C@@H]3O[C@H](CO)[C@@H](O)[C@H](O)[C@H]3O)O2)c(=O)[nH]c1=O	EC50	MT-4	IIIB	cytopathic effect / MTT			0.05 µM
CCOCn1c(Sc2ccccc2)c(C)c(=O)[nH]c1=O	EC50	MT-4					0.8 µM
O=C(NC(C(=O)O)c1ccccc1)c1ccccc1SSc1ccccc1C(=O)NC(C(=O)O)c1ccccc1	EC50	CEM	IIIB	cytopathic effect / XTT			25 µM
Cc1c(Sc2ccccc2)n(COCCN=[N+]=[N-])c(=O)[nH]c1=O	EC50	MT-4					<5.7 µM
CCOC(=O)[C@H](C)NP(=O)(OC[C@@H]1OC[C@H](n2cnc3c(NC4CC4)nc(N)nc32)O1)Oc1ccccc1	EC50	PBMC	LAI	RT activity			0.006 µM
CCCCCCCCCCCCCCCC(=O)OCC(COC(=O)CCC(=O)OCC1CC(OP(=O)(O)OCC2CC(OP(=O)(O)OCC3CC(O)C(n4cnc5c(N)ncnc54)O3)C(n3cnc4c(N)ncnc43)O2)C(n2cnc3c(N)ncnc32)O1)OC(=O)CCCCCCCCCCCCCCC	EC50	SupT1 + Sup-T1	IIIB	syncytia			24 µM
CCC(=O)OCCOCn1c(Sc2ccccc2)c(C)c(=O)[nH]c1=O	EC50	MT-4					7.1 µM
CC(C)(C)OC(=O)N(CCCCCCOC(=O)OC[C@H]1O[C@@H](n2ccc(N)nc2=O)CS1)CCCCCN(Cc1ccccc1)C(=O)OC(C)(C)C	EC50	MT-4	LAV	syncytia			1 µM
CCCCCC(NC(=O)c1ccccc1SSc1ccccc1C(=O)NC(CCCCC)C(=O)O)C(=O)O	EC50	CEM	IIIB	cytopathic effect / XTT			6.9 µM
Cc1cn([C@H]2C[C@H](N=[N+]=[N-])[C@@H](COP(=O)(OCCSC(=O)C(C)(C)C)OCCSC(=O)C(C)(C)C)O2)c(=O)[nH]c1=O	EC50	PBMC	BaL	RT activity			0.062 µM
CC1(C)C2CC[C@]3(C)C(C(=O)C=C4C5C[C@@](C)(C(=O)O)CC[C@]5(C)CC[C@]43C)[C@@]2(C)CC[C@@H]1O[C@@H]1O[C@H](C(=O)[O-])[C@@H](O[C@@H]2O[C@H](C(=O)[O-])[C@@H](OS(=O)(=O)[O-])[C@H](OS(=O)(=O)[O-])[C@H]2OS(=O)(=O)[O-])[C@H](OS(=O)(=O)[O-])[C@H]1OS([O-])(O)O	EC90	MT-4	EVK	p24			>1000 µg/mL
O=C(O)C(=O)/C=C(\O)c1cc(Cc2cccc(Cl)c2F)cn(Cc2cccc(Cl)c2)c1=O	EC50	MAGI					1.5 µM
COc1ccc(C2CC(=O)c3c(O)cc(O[C@@H]4O[C@H](CO[C@@H]5O[C@@H](C)[C@H](O)[C@@H](O)[C@H]5O)[C@@H](O)[C@H](O)[C@H]4O)cc3O2)cc1O	EC50	TZM-bl	HXB2	visual reading / absorbance	pseudotyped		>100 µg/mL
CC(C)C1=C2[C@H]3CC[C@@H]4[C@@]5(C)CC[C@H](OC(=O)[C@H]6C[C@@H](C(=O)O)C6(C)C)C(C)(C)[C@@H]5CC[C@@]4(C)[C@]3(C)CC[C@@]2([C@@H](O)CNCc2ccc(Cl)cn2)CC1=O	EC50	MT-2	92HT599	p24 / ELISA			<1 µM
CC(=O)N(C)CCN(C)c1nc(C(=O)NCc2ccc(F)cc2)c(O)c2ncccc12	EC50	MT-4		p24	50% human serum		<0.625 µM
CCc1c(Sc2ccccc2)n(COCc2ccccc2)c(=O)[nH]c1=O	EC50	MT-4					0.0025 µM
CC(C)C1=C2[C@H]3CC[C@@H]4[C@@]5(C)CC[C@H](OC(=O)[C@H]6C[C@@H](C(=O)O)C6(C)C)C(C)(C)[C@@H]5CC[C@@]4(C)[C@]3(C)CC[C@@]2([C@@H](O)CNC(=O)C(C)(C)NC(=O)c2ccccc2Cl)CC1=O	EC50	MT-2	92HT599	p24 / ELISA			<1 µM
CCOC[C@@H]1CC(NC(=O)[C@H](OCc2ccccc2)[C@H](O)[C@@H](O)[C@@H](OCc2ccccc2)C(=O)N[C@H]2c3ccccc3C[C@H]2O)CO1	EC50	MT-4		cytopathic effect / XTT			4.6 µM
Nc1nc2c(ncn2[C@H]2CO[C@@H](CO)O2)c(=O)[nH]1	EC90	PBMC	LAI	RT activity			2.6 µM
Cc1c(C)c2c(c(C)c1OC(=O)CCC(=O)OC1CC(COP(=O)(O)OC3CC(COP(=O)(O)OC4CC(CO)OC4n4cnc5c(N)ncnc54)OC3n3cnc4c(N)ncnc43)OC1n1cnc3c(N)ncnc31)CCC(C)(CCCC(C)CCCC(C)CCCC(C)C)O2	EC50	SupT1 + Sup-T1	IIIB	syncytia			18 µM
O=C(NC1CO[C@H](CO)C1)[C@H](OCc1ccccc1)[C@H](O)[C@@H](O)[C@@H](OCc1ccccc1)C(=O)N[C@H]1c2ccccc2C[C@H]1O	EC50	MT-4		cytopathic effect / XTT			1.12 µM
CC(=O)OC[C@H]1O[C@@H](SCCOP(=O)(O)OC[C@H]2O[C@@H](n3cc(C)c(=O)[nH]c3=O)C[C@@H]2N=[N+]=[N-])[C@H](OC(C)=O)[C@@H](OC(C)=O)[C@@H]1OC(C)=O	EC50	MM + M/M	LAI	RT activity			0.2 µM
C=CCOC[C@@H]1CC(NC(=O)[C@H](OCc2ccccc2)[C@H](O)[C@@H](O)[C@@H](OCc2ccccc2)C(=O)N[C@H]2c3ccccc3C[C@H]2O)CO1	EC50	MT-4		cytopathic effect / XTT			5.45 µM
O=C(CCCCCNCc1ccccc1)Nc1ccn([C@H]2CS[C@@H](CO)O2)c(=O)n1	EC50	MT-4	LAV	syncytia			10 µM
CCc1c(Sc2cc(C)cc(C)c2)n(COCc2ccccc2)c(=O)[nH]c1=O	EC50	MT-4					0.005 µM
Nc1ccn([C@H]2CS[C@@H](COC(=O)CCCCCNCCCCCNCc3ccccc3)O2)c(=O)n1	EC50	Macrophage + Monocytes/macrophages	PAR	syncytia			0.001 µM
CC(C)C[C@H](NC(=O)c1ccccc1SSc1ccccc1C(=O)N[C@@H](CC(C)C)C(=O)O)C(=O)O	EC50	CEM	IIIB	cytopathic effect / XTT			8.9 µM
Cc1ccc(Cn2cc(Cc3cccc(Cl)c3)cc(/C(O)=C/C(=O)C(=O)O)c2=O)cc1	EC50	MAGI					2.5 µM
CON(C)C(=O)[C@H](CC(C)C)NC(=O)c1ccccc1SSc1ccccc1C(=O)N[C@@H](CC(C)C)C(=O)N(C)OC	EC50	CEM	IIIB	cytopathic effect / XTT			>20 µM
CC1=C(C(=O)Nc2ccc(Cl)c(C(=O)OC(C)C)c2)SCCO1	EC50	CEM	IIIB	syncytia		RT-E138K	>61 µM
CC(C)(C)OC(=O)N(CCCCCC(=O)Nc1ccn([C@H]2CS[C@@H](CO)O2)c(=O)n1)Cc1ccccc1	EC50	MT-4	LAV	syncytia			20 µM
Cc1cc(C)cc(Sc2c(C)c(=O)[nH]c(=S)n2COCCO)c1	EC50	MT-4					<0.8 µM
CC(C)C1=C2[C@H]3CC[C@@H]4[C@@]5(C)CC[C@H](OC(=O)[C@H]6C[C@@H](C(=O)O)C6(C)C)C(C)(C)[C@@H]5CC[C@@]4(C)[C@]3(C)CC[C@@]2(CC(=O)N[C@@H](C)c2ccccc2)CC1=O	EC50	MT-2	92HT599	p24 / ELISA			<1 µM
O=C(NC1CO[C@H](CO)C1)[C@H](OCc1ccccc1)[C@H](O)[C@@H](O)[C@@H](OCc1ccccc1)C(=O)N[C@@H]1CO[C@H](CO)C1	EC50	MT-4		cytopathic effect / XTT			>10 µM
CSc1cc(N)nc(S[C@@H](C)c2cc3ccoc3cn2)n1	EC50	MT-4	MF DLV-resistant (RT P236L)	p24		RT-P236L	<0.02 µM
O=C(O)C(=O)/C=C(\O)c1cc(Cc2ccccc2)cn(Cc2cccc(F)c2F)c1=O	EC50	MAGI					0.9 µM
O=C(CCCCCNCCCCCNCc1ccccc1)Nc1ccn([C@@H]2CS[C@@H](COC(=O)CCCCCNCCCCCNCc3ccccc3)O2)c(=O)n1	EC50	MT-4	LAV	syncytia			10 µM
O=C(O)C(=O)/C=C(\O)c1cc(Cc2ccccc2)cn(Cc2c(F)cccc2F)c1=O	EC50	MAGI					1.5 µM
CSCC[C@](C)(NC(=O)c1ccccc1SSc1ccccc1C(=O)N[C@@](C)(CCSC)C(=O)O)C(=O)O	EC50	CEM	IIIB	cytopathic effect / XTT			46 µM

For reference, 5 entries again:

compound	endpoint	cells	strain or isolate	method	conditions	changes	result
Cc1cc(C)cc(S(=O)(=O)c2c(C(N)=O)[nH]c3c(Cl)cc(Cl)cc23)c1	EC90	C8166		cytopathic effect / MTT		RT-K103R	>100 µM
Cc1cn(CCO[C@H]2C=C[C@@H](CO)O2)c(=O)[nH]c1=O	EC50	MT-4	IIIB	cytopathic effect / MTT			>29 µg/mL
Cc1c(Sc2ccccc2)n(COCCN=[N+]=[N-])c(=O)[nH]c1=O	EC50	MT-4					<5.7 µM
Cc1occc1C(=S)Nc1ccc(Cl)c(/C=N/OC(C)(C)C)c1	EC50	CEM	IIIB	syncytia		RT-V179D	0.48 µM
CC(C)(C)OC(=O)N(CCCCCC(=O)OC[C@H]1O[C@@H](n2ccc(N)nc2=O)CS1)CCCCN(Cc1ccccc1)C(=O)OC(C)(C)C	EC50	MT-4	LAV	syncytia			0.1 µM

Rows are shuffled and stem from different studies. ECn: concentration that inhibits the pathogen or its effect by n%.